Results of unrelated studies side by side (data: NIAID ChemDB).

All rows: tests in culture; species: Mycobacterium avium; measure: MIC

Lines come from different laboratories, so protocols vary. Blank or dashed fields: not listed here.

SMILES	strain	conditions	result
O=c1oc2ccccc2c(=O)n1-c1ccc(Cl)c(Cl)c1	CNCTC MY330/88		8 µM
Cc1ccc2nc(SCc3ccccc3Cl)[nH]c2c1	MY330/88		32 µM
CCCCCCCCCOc1ccccc1NC(=O)OCC[NH+]1CCCC1	MY330/88		16 µM
Cc1ccc2oc(=O)n(-c3cccc(Cl)c3)c(=O)c2c1	CNCTC MY330/88		16 µM
Cc1ccc2nc(SCc3cccc(C(F)(F)F)c3)[nH]c2c1	MY330/88		32 µM
Clc1ccc2c(c1)nc1cc(Nc3ccccc3)c(=NC3CCCCC3)cc-1n2-c1ccccc1	24657		3.3 µg/mL
Cc1cccc(C(N)=Nc2nc(-c3ccccn3)cc3ccccc23)c1	LR-25		2 µg/mL
Cc1ccc2nc(SCc3cccc([N+](=O)[O-])c3)[nH]c2c1	MY330/88		32 µM
COc1ccc2c(=O)n(-c3ccc(Cl)c(Cl)c3)c(=O)oc2c1	CNCTC MY330/88		32 µM
Cc1ccc2oc(=S)n(-c3ccc(Cl)c(Cl)c3)c(=S)c2c1	MY330/88	21 d	16 µM
Cc1ccc2nc(SCc3c(F)cccc3Cl)[nH]c2c1	MY330/88		8 µM
Cc1ccc(-n2c(=O)oc3ccc(F)cc3c2=O)cc1	CNCTC MY330/88		31 µM
O=c1oc2ccc(F)cc2c(=S)n1-c1ccccc1	MY330/88	14 d	16 µM
Cc1ccc2nc(SCc3ccc([N+](=O)[O-])cc3[N+](=O)[O-])[nH]c2c1	MY330/88		62 µM
COc1ccc(-n2c(=O)oc3cc(C)ccc3c2=O)cc1	CNCTC MY330/88		62 µM
CCCCCCOc1ccccc1NC(=O)OCCN1CCOCC1	MY330/88		62.5 µM
COc1ccc2oc(=O)n(-c3ccc(F)cc3)c(=O)c2c1	CNCTC MY330/88		125 µM
CC[C@H]1OC(=O)[C@H](C)C(=O)[C@H](C)[C@@H](O[C@@H]2O[C@H](C)C[C@H](N(C)C)[C@H]2O)[C@](C)(OC)C[C@@H](C)C(=O)[C@H](C)[C@H]2N(CCCCn3cnc(-c4cccnc4)c3)C(=O)O[C@]12C	Isolate 711		2.5 µg/mL
O=c1oc2ccc(F)cc2c(=S)n1-c1ccc(Br)cc1	MY330/88	14 d	4 µM
O=c1oc2ccccc2c(=O)n1-c1ccccc1	CNCTC MY330/88		62 µM
CCCCOc1cccc(NC(=O)OCCN2CCCCCC2)c1	MY330/88		32 µM
Cc1ccc2oc(=O)n(-c3ccc(Br)cc3)c(=S)c2c1	MY330/88	21 d	4 µM
CCCCCOc1cccc(NC(=O)OCCN2CCCCC2)c1	MY330/88		32 µM
Cc1ccc2nc(SCc3ccc(Br)cc3)[nH]c2c1	MY330/88		>32 µM
O=c1oc2ccc(Cl)cc2c(=S)n1-c1ccc(C(F)(F)F)cc1	MY330/88	21 d	32 µM
CCCOc1ccccc1NC(=O)OCC[NH+]1CCCC1	MY330/88		1000 µM

2 of the rows above, restated:

| SMILES | strain | conditions | result |
|---|---|---|---|
| Cc1ccc2nc(SCc3ccc(Br)cc3)[nH]c2c1 | MY330/88 |  | >32 µM |
| CCCCCCCCCOc1ccccc1NC(=O)OCC[NH+]1CCCC1 | MY330/88 |  | 16 µM |